In article PMC10653801, “Functional diversification despite structural congruence in the HipBST toxin-antitoxin system of Legionella pneumophila” (mBio, 2022):

B1: HipSLp, purified recombinant, His6-SBP tag cleaved (natural protein)
chain: MRKAYVSVSGIKAGILEELQGGTYQFTYFEDYHGAPVSLTMPLKNKVYDFDVFPPFFEGLLPEGIMLEALLRKYKIDKNDYFGQLILVGQDVVGAVTIEEIR
B2: HipBLp, purified recombinant, His6-SBP tag cleaved (natural protein)
chain: MPKHEIANLIHYYRKQSGLSQQELARLAGVGKTVIYDIEKGKESVRLNTLLKVLDVLNIQIKFETPFPQTTDNNS

Molecular target: HipTLp, purified recombinant, His6-SBP tag cleaved (Legionella pneumophila, UniProt Q5ZSZ6 1-312)
Assay: native gel or EMSA
Conditions: both partners purified

Binder | binding result
B1 | binds
B2 | binds
